Measurements reported in PMC8814042.

Chains of the proteins cited; added tags and fusions are not shown. Lines headed by an entry give the natural chain unless they say otherwise; changes in a name come on top. A line that says so, or that is headed by a name, gives the form on record, which may keep a tag or linker. Residues count along the entry.
UniProt P02745, 23-245: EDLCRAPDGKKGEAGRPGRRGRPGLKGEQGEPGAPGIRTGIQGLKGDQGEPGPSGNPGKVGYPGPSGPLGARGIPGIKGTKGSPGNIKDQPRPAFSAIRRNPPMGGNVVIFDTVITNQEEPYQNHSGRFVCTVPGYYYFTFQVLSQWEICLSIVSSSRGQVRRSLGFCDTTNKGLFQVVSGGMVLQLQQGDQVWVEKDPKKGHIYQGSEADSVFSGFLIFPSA
human C1q (biotinylated), UniProt P02746, 28-253: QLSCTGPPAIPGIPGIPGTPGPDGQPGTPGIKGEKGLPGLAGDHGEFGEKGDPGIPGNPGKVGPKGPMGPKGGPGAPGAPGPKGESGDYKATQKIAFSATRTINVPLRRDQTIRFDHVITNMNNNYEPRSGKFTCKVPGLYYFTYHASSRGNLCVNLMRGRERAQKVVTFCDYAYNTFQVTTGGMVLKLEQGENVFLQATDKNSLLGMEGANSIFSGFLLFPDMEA
human C1q (biotinylated), UniProt P02747, 29-245: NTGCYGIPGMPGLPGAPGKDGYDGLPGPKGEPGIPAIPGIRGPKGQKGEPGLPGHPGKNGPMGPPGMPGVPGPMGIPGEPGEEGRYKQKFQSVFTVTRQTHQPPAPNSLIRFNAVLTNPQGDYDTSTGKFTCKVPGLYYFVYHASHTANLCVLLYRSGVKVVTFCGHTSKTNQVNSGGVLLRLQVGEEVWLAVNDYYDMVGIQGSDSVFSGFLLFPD
10E8v4 EFTAE (G236A/S267E/H268F/S324T/I332E Fc variant) (human), light, as listed by the source, chain 2 of 2: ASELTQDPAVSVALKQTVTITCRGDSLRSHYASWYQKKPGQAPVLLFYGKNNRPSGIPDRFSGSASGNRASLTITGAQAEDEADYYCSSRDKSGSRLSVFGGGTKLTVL
10E8v4 EFTAE (G236A/S267E/H268F/S324T/I332E Fc variant) (human), heavy, as listed by the source, chain 1 of 2: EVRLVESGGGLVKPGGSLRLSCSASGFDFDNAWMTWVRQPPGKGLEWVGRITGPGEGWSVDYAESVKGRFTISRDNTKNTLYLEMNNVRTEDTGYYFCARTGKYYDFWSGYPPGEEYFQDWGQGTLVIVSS

Biological target: 10E8v4 EFTAE (G236A/S267E/H268F/S324T/I332E Fc variant) (human)
Assay: bead-based flow cytometry (Luminex MAGPIX); antibody held on NeutrAvidin MagPlex beads coated with biotinylated MPER peptide (overnight, 4 °C); 1.0 µg/ml biotinylated human C1q, 1 h RT; streptavidin-PE; 1X PBS, 0.1% BSA, 0.05% Tween-20

For “human C1q (biotinylated) (from UniProt P02745 23-245; P02746 28-253; P02747 29-245) (complex)”, the fold increase of C1q binding against unmodified 10E8v4 was 2 fold.
